The supplement of paper PMC9931576
Human monoclonal antibodies against the spike receptor-binding domain (heavy:light variable regions). IC50 against pseudoviruses bearing the spike of naturally observed variants; lower = stronger; >10 µg/ml means not reached at the top dose. No active / inactive call. The stated detection limit is 0.0005 µg/ml; values near or below 0.001 µg/ml lie at the floor of the assay.

B1: BD57-0302 (protein)
chain 1: EVQLVQSGAEVKKPGESLKISCKGSGYTFARYWIGWVRQMPGKGLEWMGIIYSGDSDARYSPSFQGQVTISADKSISTAYLQWSSLRASDTAMYYCARTDTTDWFDYWGQGTLVTVSS
chain 2: EIVLTQSPATLSLSPGERATLSCRASQSVHNFLAWYQQKPGQAPRLLIYDASDRATGIPARFSGSGSGTDFTLTISSLEPEDFAVYYCQQRSNFGGGTKVEIK
B2: BD57-0306 (protein)
chain 1: QVQLQESGPGLVKPSQTLSLTCTVSGGSLISAYYYWSWIRQRPGEGLEWIGYIYNSGNTYYNPSLKSRVTISVDTSTNEISLKLTSVTAADTAVYFCARDFGGNANYFGYWGQGTPVTVSS
chain 2: DIQMTQSPASLSASVGDRVTITCQASQDIRKSLSWYQQKPGIAPNLLIYDASNLETGVPSRFSGSGSGTEFTFTISSLQPEDIATYYCQQYDNLPITFGQGTRLETK
B3: BD57-0310 (protein)
chain 1: QVQLVESGGGVVQPGRSLRLSCAASGFTFSNYDMHWVRQAPGKGLEWVAVISKDGSKKYNADSVKGRFTISRDNSKNTVYLQMNSLRAEDTGVYYCARDLDPYSYGYFDSWGQGTLVTVSS
chain 2: EIVMTQSPATLSVSPGERATLSCRASQSVSSNLAWYQQNPGQAPRLLIYGASTRATGIPARFSGSGSGTEFTLTISSLQSEDFVVYYCQQYYYWPSFGPGTKVDIK
B4: BD-498 (protein)
chain 1: EVQLVESGGGLVQPGGSLRLSCAASGFTVSRNYMSWVRQAPGKGLEWVSVIYSGGTTHYADSVKGRFTISRHNSKNTLYLQMNSLRAEDTAVYYCARDLVVYGMDVWGQGTTVTVSS
chain 2: DIQLTQSPSFLSASVGDRVTITCRASQGISSYLAWYQQKPGKAPKLLIYAASTLQSGVPSSFSGSGSGTEFTLTISSLQPEDFATYYCQQLNSYPLTFGGGTKVEIK
B5: BD57-0314 (protein)
chain 1: QVQLVQSGAEVKKPGASVMVSCKASGNTLTNYYIHWVRQAPGQGLEWMGIINPSGRSTTYAQKFQDRVTMTGDTSTSTVYMDLSSLRSEDTAVYYCARGGIVPDARTPFDIWGQGTMVTVSS
chain 2: DIQMTQSPSTLSASVGDRVTITCRASQSISRSLAWYQQKPGEAPKLLIYKASILESGVPSRFSGSGSGAEFTLTISSLQPDDFATYYCQHYNLYSTFGQGTKVEIK
B6: BD57-0315 (protein)
chain 1: EVQLVESGGGLLQPGRSLKLSCAASGFTFDDYTMHWVRQPPGKGLEWVSGISWNGGVIGYADSVRGRFIIARDNAKKSLYLQMRSLRPEDTALYYCAKDTMVREGYNYYYGMDVWGQGTTVTVSS
chain 2: QSVLTQPPSVSGAPGQRVTISCTGSSSNIGAGYDVHWYQQLPGTAPKLLIYGNNNRPSGVPDRFSGSKSGTSASLAITGLQAEDEADYYCQSYDSSLSGYVFGTGTKVTVL
B7: BD57-0317 (protein)
chain 1: AQLVESGGGLVQPGGSLRLSCSASGFTFSSYSMYWVRQAPGRELEYVSAISRHGDLTYYSDSVKGRFSISRDNSQNTLDLQMSSLRAEDTALYYCVKDIGKQLSYDVFEIWGRGTMVTVSS
chain 2: DIQMTHSPSSLSASVGDRVTITCRTSQSISTYLNWYQQKPGSAPKLLIYGASSLRSGVPSRFSGSGSGTEFTLTINTLQPEDFATYYCQQSYISPPTFGQGTKVEIK
B8: BD57-0319 (protein)
chain 1: EVQLEESGGALVQPGGSLRLSCAASGFTLSEDDMHWVRQTSGKRLEWVSVIGTAGDTYYADSVKGRFTISRDNVKNSLYLHMNNLRAGDTAVYFCTRGSVTTKGLYHYYYMDVWGKGTTVTVSS
chain 2: DIQMTQSPSSLSASVGDRVTITCRASQSISTYLNWYQQKPGKAPKLLIYAASSLQSGIPSRFSGSGSGTEFTLTISSLQPEDFATYYCQQSYIMPSWTFGQGTKVEIK
B9: BD57-0320 (protein)
chain 1: EVQLVESGGGLVQPGRSLRLSCAASGFTFDDYAMHWVRQAPGKGLEWVSGIPWHSGGMVYADSVQGRFTISRDNAKNSLYLQMNSLGPEDTALYYCAKGGTRNREKWVYFDYWGQGTLVTVSS
chain 2: EIVMTQSPATLSVSPGERATLSCRASQSVSSNLAWYQQKPGQAPRLLIYGASTRATGIPARFSGSGSGTEFTLTISSLQSEDFAVYYCQQYNNWPPGITFGQGTRLEIK
B10: BD57-0322 (protein)
chain 1: EVQLVESGGGLVQPGGSLRLSCAASGFSFSGYDMHWVRQATGKGLEWVSGIGTAGDTYYSGSVKGRFTISRENAKNSLNLQMNNLRAGDTAVYYCARGGSSNWYWYFDLWGRGTLVTVSS
chain 2: DIQMTQSPSSLSASVGDRVSITCRASQSINTYLNWYQQKPGRAPKLLIYAASSLQSGVPSRFSGSGSGTDYTLTISSLQPEDFATYYCQQGYSMPEVTFGQGTRLEIK
B11: BD57-0323 (protein)
chain 1: QVQLVESGGGVVQPGKSLRLSCASSGFTFRSYTMHWVRQVPGKGLEWVAVISNDGRIKDYADIVKGRFTISRDNSKNTLYLEMNSLRTEDTAIYYCARDSENTMIVDCFQHWGQGALVTVSS
chain 2: DIQMTQSPSSLSASVGDRVTISCRASQSITNYLNWYQQKPGKAPKLLIYAASSLQSGVPSRFSGSGSGTDFTLTITNLQPEDFATYYCQQSYTTFMYTFGQGTTLDIK
B12: BD57-0326 (protein)
chain 1: QVQLVQSGAEVKKPGASVRVSCKASGYTFIDYYIHWVRQTPGQGLEWMGWIDPKSGGTNYAKNFRARVAMTRDTSINTVYMDLSRLRSDDTAVFYCARDTTATWSDGEVLDYWGQGTVVTVSS
chain 2: DIQMTQSPSSLSASVGDRITITCRASQSINRNLNWYQQKPGKAPNLLIYGASSLQAGVPSRFSGSGSGTDFTLTISSLQLEDLATYYCQQSYSTPPLTFGGGTKVEIK
B13: BD57-0330 (protein)
chain 1: QVQLVQSGAEVTTPGASVKVSCKASGYTFTDYHIYWVRQAPGQGLEWMGWINPNSGGTNYAQKFQGRVTMTRDTSISTAYMELSSLRSDDTAVYYCARGELELRTYYYYMDVWGKGTTVTVSS
chain 2: SYVLTQPPSVSVAPGKTARITCGGNNIGSKSVNWYQQKPGQAPVLVIHSDSDRPSGIPERLSGSNSGNTATLTISRVGAGDEADYYCQVWDISSDHVIFGGGTKLTVL

The binders below were run against SARS-CoV-2 Omicron BA.1 spike pseudovirus (assay: pseudovirus neutralization IC50; higher = weaker neutralization).
Description: (§1)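 Single-round VSV luciferase pseudovirus mixed with antibody dilutions for 1 h and put on Huh-7 cells for about a day; IC50 from the dose curve.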

Compared with B1, B2 is 3.9-fold higher in “pseudovirus neutralization IC50” value: 0.586 µg/mL for the first, 2.28 µg/mL for the second.

B3 and B4 cannot be ordered by “pseudovirus neutralization IC50” value: greater than 10 µg/mL for the first, greater than 10 µg/mL for the second.

Going from B5 to B6, the “pseudovirus neutralization IC50” value falls from greater than 10 µg/mL to 0.0704 µg/mL.

B7 and B8 are within 1.5-fold of each other in “pseudovirus neutralization IC50” value: 4.48 µg/mL for the first, 3.39 µg/mL for the second.

Compared with B9, B10 is higher in “pseudovirus neutralization IC50” value: 2.38 µg/mL for the first, greater than 10 µg/mL for the second.

First: B11
Second: B12
The “pseudovirus neutralization IC50” value of the first is higher: greater than 10 µg/mL for the first, 0.243 µg/mL for the second.

With B13 the “pseudovirus neutralization IC50” value was 2.4 µg/mL.

What follows are binders tested against SARS-CoV-2 Omicron BA.2 spike pseudovirus in the same assay as above.
Description: as §1

Compared with B1, B2 is 6-fold higher in “pseudovirus neutralization IC50” value: 0.557 µg/mL for the first, 3.32 µg/mL for the second.

B3 and B4 cannot be ordered by “pseudovirus neutralization IC50” value: greater than 10 µg/mL for the first, greater than 10 µg/mL for the second.

Going from B5 to B6, the “pseudovirus neutralization IC50” value falls from greater than 10 µg/mL to 0.0844 µg/mL.

B7 and B8 are within 1.5-fold of each other in “pseudovirus neutralization IC50” value: 3.34 µg/mL for the first, 3.82 µg/mL for the second.

First: B9
Second: B10
The “pseudovirus neutralization IC50” value of the first is lower: 1.88 µg/mL for the first, greater than 10 µg/mL for the second.

Compared with B11, B12 is lower in “pseudovirus neutralization IC50” value: greater than 10 µg/mL for the first, 0.493 µg/mL for the second.

B13 was tested, and the “pseudovirus neutralization IC50” value was 2.25 µg/mL.

What follows are binders tested against SARS-CoV-2 Omicron BA.2.75 spike pseudovirus in the same assay as above.
Description: as §1

First: B1
Second: B2
The “pseudovirus neutralization IC50” value of the first is 2.3-fold lower: 1.14 µg/mL for the first, 2.63 µg/mL for the second.

B3 and B4 cannot be ordered by “pseudovirus neutralization IC50” value: greater than 10 µg/mL for the first, greater than 10 µg/mL for the second.

First: B5
Second: B6
The “pseudovirus neutralization IC50” value of the first is higher: greater than 10 µg/mL for the first, 0.0617 µg/mL for the second.

B7 and B8 are within 1.5-fold of each other in “pseudovirus neutralization IC50” value: 2.72 µg/mL for the first, 3.23 µg/mL for the second.

Compared with B9, B10 is higher in “pseudovirus neutralization IC50” value: 2.86 µg/mL for the first, greater than 10 µg/mL for the second.

Compared with B11, B12 is lower in “pseudovirus neutralization IC50” value: greater than 10 µg/mL for the first, 0.107 µg/mL for the second.

With B13 the “pseudovirus neutralization IC50” value was 1.93 µg/mL.

These binders were tested against SARS-CoV-2 Omicron BA.5 spike pseudovirus in the same assay as above.
Description: as §1

Going from B1 to B2, the “pseudovirus neutralization IC50” value rises from 1.18 µg/mL to 7.47 µg/mL (6.3-fold).

B3 and B4 cannot be ordered by “pseudovirus neutralization IC50” value: greater than 10 µg/mL for the first, greater than 10 µg/mL for the second.

Going from B5 to B6, the “pseudovirus neutralization IC50” value falls from greater than 10 µg/mL to 0.433 µg/mL.

B7 and B8 are within 1.5-fold of each other in “pseudovirus neutralization IC50” value: 2.68 µg/mL for the first, 3.08 µg/mL for the second.

Compared with B9, B10 is higher in “pseudovirus neutralization IC50” value: 4.31 µg/mL for the first, greater than 10 µg/mL for the second.

Going from B11 to B12, the “pseudovirus neutralization IC50” value falls from greater than 10 µg/mL to 0.0331 µg/mL.

In the case of B13, the “pseudovirus neutralization IC50” value is reported as greater than 10 µg/mL.

Each binder was assayed against SARS-CoV-2 Omicron BQ.1.1 spike pseudovirus in the same assay as above.
Description: as §1

First: B1
Second: B2
The “pseudovirus neutralization IC50” value of the first is 2.2-fold lower: 2.29 µg/mL for the first, 5.06 µg/mL for the second.

B3 and B4 cannot be ordered by “pseudovirus neutralization IC50” value: greater than 10 µg/mL for the first, greater than 10 µg/mL for the second.

B5 and B6 cannot be ordered by “pseudovirus neutralization IC50” value: greater than 10 µg/mL for the first, greater than 10 µg/mL for the second.

Going from B7 to B8, the “pseudovirus neutralization IC50” value falls from 3.81 µg/mL to 2.44 µg/mL (1.6-fold).

First: B9
Second: B10
The “pseudovirus neutralization IC50” value of the first is lower: 3.56 µg/mL for the first, greater than 10 µg/mL for the second.

B11 and B12 cannot be ordered by “pseudovirus neutralization IC50” value: greater than 10 µg/mL for the first, greater than 10 µg/mL for the second.

For B13, the “pseudovirus neutralization IC50” value was greater than 10 µg/mL.

What follows are binders tested against SARS-CoV-2 Omicron XBB spike pseudovirus in the same assay as above.
Description: as §1

Going from B1 to B2, the “pseudovirus neutralization IC50” value rises from 2.01 µg/mL to 4.2 µg/mL (2.1-fold).

B3 and B4 cannot be ordered by “pseudovirus neutralization IC50” value: greater than 10 µg/mL for the first, greater than 10 µg/mL for the second.

B5 and B6 cannot be ordered by “pseudovirus neutralization IC50” value: greater than 10 µg/mL for the first, greater than 10 µg/mL for the second.

Going from B7 to B8, the “pseudovirus neutralization IC50” value rises from 2.31 µg/mL to 4.98 µg/mL (2.2-fold).

First: B9
Second: B10
The “pseudovirus neutralization IC50” value of the first is lower: 3.94 µg/mL for the first, greater than 10 µg/mL for the second.

B11 and B12 cannot be ordered by “pseudovirus neutralization IC50” value: greater than 10 µg/mL for the first, greater than 10 µg/mL for the second.

For B13, the “pseudovirus neutralization IC50” value was 2.51 µg/mL.

What follows are binders tested against SARS-CoV-2 early D614G spike pseudovirus in the same assay as above.
Description: as §1

First: B1
Second: B2
The “pseudovirus neutralization IC50” value of the first is lower: 1.54 µg/mL for the first, greater than 10 µg/mL for the second.

Going from B3 to B4, the “pseudovirus neutralization IC50” value falls from greater than 10 µg/mL to 0.0626 µg/mL.

Going from B5 to B6, the “pseudovirus neutralization IC50” value falls from greater than 10 µg/mL to 0.0211 µg/mL.

First: B7
Second: B8
The “pseudovirus neutralization IC50” value of the first is higher: greater than 10 µg/mL for the first, 8.68 µg/mL for the second.

Going from B9 to B10, the “pseudovirus neutralization IC50” value rises from 1.77 µg/mL to greater than 10 µg/mL.

Going from B11 to B12, the “pseudovirus neutralization IC50” value falls from greater than 10 µg/mL to 0.0249 µg/mL.

B13 was tested, and the “pseudovirus neutralization IC50” value was greater than 10 µg/mL.
